Compound potency records, mixed from different reports. Data source: NIAID ChemDB in PubChem.

Common to all: growth or infection tests; species: HIV-1; cell line: MT-4; read-out: EC50

Lines come from different laboratories, so protocols vary. An empty or dashed field is not shown. ECn: concentration that inhibits the pathogen or its effect by n%.

structure,strain,mutations,method,value
Fc1ccc(NC(=S)Nc2nc3ccccc3s2)cc1Cl,IIIB,,MTT,>14 µM
COC(=O)C[C@H](O)[C@@H](NC(=O)[C@H](C)NC(=O)C[C@H](O)[C@@H](NC(=O)Oc1ccccc1)C(F)(F)F)C(F)(F)F,IIIB,,RT activity,>100 µg/mL
N#Cc1cc(Cl)cc(Oc2c(Br)ccc(CC(=O)Nc3ccc(S(N)(=O)=O)cc3Cl)c2F)c1,,V106A,,0.0016 µM
Cc1cc(C#N)cc(C)c1Oc1nc(NC2CCN(Cc3ccc(S(N)(=O)=O)cc3)CC2C(=O)O)nc2ccsc12,IIIB,NNRTI-resistant (RT Y181C),MTT,3.3 µM
CCCOCn1c(C(F)c2cccc(C#N)c2)c(CC)c(=O)[nH]c1=O,IIIB,Y181C,MTT,3 µM
Clc1ncnc2c1ncn2[C@H]1C=CC2(CC1)O[C@H](c1ccccc1)[C@@H](c1ccccc1)O2,NL4-3,,MTT,>6.4 µg/mL
O=C(O)C[C@H](O)[C@@H](NC(=O)Oc1ccccc1)C(F)(F)F,IIIB,,RT activity,>100 µg/mL
C=CCOCn1c(C(F)c2cccc(C#N)c2)c(CC)c(=O)[nH]c1=O,IIIB,,MTT,0.05 µM
Cc1cn([C@H]2C[C@H](N=[N+]=[N-])[C@@H](CO)O2)c(=O)[nH]c1=O,IIIB,MDR,MTT,0.08 µM
Cc1cc(/C=C/C#N)cc(C)c1Oc1nc(NC2CCN(Cc3ccc(F)cc3)CC2)nc2ccsc12,IIIB,NNRTI-resistant (RT Y181C),MTT,0.0272 µM
CCOCn1c(C(=O)c2cccc(C#N)c2)c(CC)c(OC)nc1=O,IIIB,,MTT,10 µM
Cc1cn([C@H]2CS[C@@H](CO)O2)c(=O)[nH]c1=O,,,cytopathic effect,>410 µM
COC(=O)C[C@H](O)[C@@H](NC(=O)[C@H](C)NC(=O)C[C@H](O)[C@@H](N)C(F)(F)F)C(F)(F)F,IIIB,,RT activity,>100 µg/mL
CC1CCC(C(C)C)/C(=N/NC(=O)Nc2cccc(Cl)c2)C1,IIIB,,,>125 µg/mL
Cc1cc(/C=C/C#N)cc(C)c1Oc1nc(NC2CCN(Cc3ccccc3F)CC2)nc2ccsc12,IIIB,NNRTI-resistant (RT Y188L),MTT,0.139 µM
Cc1cc(-c2ccc(C#N)cc2)cc(C)c1Oc1ccnc(S(=O)(=O)CC(=O)Nc2ccc(Br)cc2)n1,IIIB,Y181C,MTT,0.114 µM
C=C1CN(S(=O)(=O)c2ccc(C)cc2)CCCN(Cc2ccccc2)CCCN(S(=O)(=O)c2ccc(C)cc2)C1,NL4-3,,cytopathic effect,0.5 µM
Nc1nc2c(ncn2[C@H]2CS[C@@H](CO)O2)c(=O)[nH]1,,,cytopathic effect,63.2 µM
Nc1ccn([C@H]2CC[C@@H](CO)O2)c(=O)n1,Clinical isolate,,MTT,3.07 µg/mL
CC1=C[C@H](Cn2cnc3c(NC4CC4)ncnc32)C[C@@H]1CO,IIIB,,MTT,>100 µg/mL
S=C(Nc1ccc(I)cc1)Nc1nc2ccccc2s1,IIIB,,MTT,>9.5 µM
Nc1nc2c(ncn2[C@H]2C[C@H](F)[C@@H](CO)O2)c(=O)[nH]1,IIIB,,cytopathic effect,2.4 µM
Cc1cc(C#N)cc(C)c1Oc1ccnc(S(=O)(=O)CC(=O)Nc2ccc(C#N)cc2)n1,IIIB,E138K,MTT,0.31 µM
Cc1cc(/C=C/C#N)cc(C)c1Oc1nc(NC2CCN(Cc3ccccn3)CC2)nc2ccsc12,IIIB,NNRTI-resistant (RT Y188L),MTT,0.0417 µM
Nc1ccn([C@H]2CO[C@H](CO)O2)c(=O)n1,,,cytopathic effect,>465 µM
O=c1ccn([C@@H]2C=C[C@H](O)CC2)c(=O)[nH]1,NL4-3,,MTT,>25 µg/mL
Cc1cc(-c2ccc(C#N)cc2)cc(C)c1Oc1ccnc(S(=O)(=O)CC(=O)NCc2ccc(F)cc2)n1,IIIB,,MTT,>6.42 µM
CC(NC(=S)Nc1nc2ccccc2s1)c1ccccc1,IIIB,,MTT,1 µM
Cc1cc(-c2ccc(C#N)cc2)cc(C)c1Oc1ccnc(S(=O)(=O)C(C)C(=O)Nc2ccc(C#N)cc2)n1,IIIB,,MTT,0.009 µM
Cc1cc(/C=C/C#N)cc(C)c1Oc1nc(NC2CCN(Cc3cccc(Cl)c3)CC2)nc2ccsc12,IIIB,NNRTI-resistant (RT F227L V106A),MTT,0.0683 µM
CC(C)CC(=O)N[C@H](C(=O)N[C@H](C(=O)N[C@H]([C@@H](O)CC(=O)N[C@@H](C)C(=O)N[C@H]([C@@H](O)CC(=O)O)C(F)(F)F)C(F)(F)F)C(C)C)C(C)C,IIIB,,RT activity,>10 µg/mL
Cc1cc(-c2ccc(C#N)cc2)cc(C)c1Oc1ccnc(S(=O)(=O)CC(=O)Nc2ccc(Cl)cc2)n1,RES056,,MTT,4.209 µM
CSCSc1nc(C(C)c2c(F)cccc2F)cc(=O)[nH]1,IIIB,RT-K103N Y181C,cytopathic effect / MTT,>100 µM
Cc1cc(C#N)cc(C)c1Oc1nc(NC2CCC(NCc3ccc(S(C)(=O)=O)cc3)CC2)nc2ccsc12,IIIB,NNRTI-resistant (RT Y188L),MTT,≥196 µM
Cc1cc(-c2ccc(C#N)cc2)cc(C)c1Oc1ccnc(S(=O)(=O)CC(=O)Nc2ccc(F)cc2)n1,IIIB,L100I,MTT,0.177 µM
CC1CCC(C(C)C)/C(=N/NC(=S)Nc2cccc(Cl)c2)C1,IIIB,,,>44.6 µg/mL
O=C1C=CN([C@H]2C=C[C@H](O)CC2)C(=O)C1C(=O)c1ccccc1,NL4-3,,MTT,>25 µg/mL
Cc1cc(-c2ccc(C#N)cc2)cc(C)c1Oc1ccnc(S(=O)(=O)C(C)C(=O)Nc2ccc(Cl)cc2)n1,IIIB,L100I,MTT,0.069 µM
O=C1C=C[C@@H](n2ccc(=O)n(C(=O)c3ccccc3)c2=O)CC1,NL4-3,,MTT,>0.5 µg/mL
Nc1ccn([C@@H]2CO[C@H](CO)O2)c(=O)n1,,,cytopathic effect,>0.465 µM
Cc1cc(/C=C/C#N)cc(C)c1Oc1ccnc(S(=O)(=O)CC(=O)NCc2ccc(Cl)cc2)n1,IIIB,,MTT,>1.43 µM
CC1CCC(C(C)C)/C(=N/NC(=S)Nc2ccc(Cl)cc2)C1,IIIB,,,>2.4 µg/mL
Cc1cc(/C=C/C#N)cc(C)c1Oc1ccnc(S(=O)(=O)CC(=O)Nc2ccc(Cl)cc2)n1,IIIB,E138K,MTT,0.015 µM
O=C(c1ccccc1)n1c(=O)ccn([C@@H]2C=CC3(CC2)O[C@H](c2ccccc2)[C@@H](c2ccccc2)O3)c1=O,NL4-3,,MTT,>25 µg/mL
CSCSc1nc(Cc2ccccc2)c(C)c(=O)[nH]1,IIIB,,cytopathic effect / MTT,7 µM

A second listing of 5 rows from above:

structure,strain,mutations,method,value
Cc1cc(-c2ccc(C#N)cc2)cc(C)c1Oc1ccnc(S(=O)(=O)C(C)C(=O)Nc2ccc(C#N)cc2)n1,IIIB,,MTT,0.009 µM
Cc1cn([C@H]2CS[C@@H](CO)O2)c(=O)[nH]c1=O,,,cytopathic effect,>410 µM
O=C(O)C[C@H](O)[C@@H](NC(=O)Oc1ccccc1)C(F)(F)F,IIIB,,RT activity,>100 µg/mL
CSCSc1nc(C(C)c2c(F)cccc2F)cc(=O)[nH]1,IIIB,RT-K103N Y181C,cytopathic effect / MTT,>100 µM
Nc1ccn([C@H]2CC[C@@H](CO)O2)c(=O)n1,Clinical isolate,,MTT,3.07 µg/mL